Laboratory results: PubChem BioAssay AID1259414 (Drosophila RNAi Screening Center, 2018)
Assay: 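Genome-wide screen for host control of endosymbiont load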 (primary screen). System: Drosophila JW18 cells infected with Wolbachia. Reagents: long dsRNA against Drosophila genes, 0.25 µg dsRNA per well of a 384-well plate. Duration: 5 days. Challenge: cells persistently infected with Wolbachia before knock-down; no added drug. Measured: 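Imaged fluorescence in situ signal for Wolbachia 23S rRNA per DAPI-counted host cell, given as a robust z-score within each plate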. Reading the numbers: Wolbachia per cell robust z: higher = more Wolbachia per host cell than the plate typical. Rule for the call: 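Active if absolute robust z reaches 1.5 in two or more of three replicates, leaving out multi- or no-target dsRNAs, genes unexpressed in JW18 and A1 wells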.
The deposit covers about 24,000 reagents; this is a random part of those with a known target gene and a result. Over the whole deposit, about 1,210 (5%) were called active. 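Inactive calls also include excluded dsRNAs with several or no targets, genes unexpressed in JW18, and well A1, regardless of score.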 Reagents against one gene are numbered here. Names joined by + are all predicted targets of the reagent.

target gene | reagent no. | Wolbachia per cell robust z, rep 1 | Wolbachia per cell robust z, rep 2 | Wolbachia per cell robust z, rep 3 | call
Gr93d | 1 | -0.888 | -0.885 | 0.176 | inactive
CG8119 + asRNA:CR43299 | 1 | 0.566 | 0.11 | -0.392 | inactive
AstA | 1 | -0.0515 | -0.337 | -0.523 | inactive
CG30043 | 1 | -0.942 | 0.0639 | -2.38 | inactive
kdn | 1 | -0.0668 | 0.327 | -0.00772 | inactive
Cpr64Ac | 1 | -1.23 | 0.622 | 0.031 | inactive
Cpr64Ac | 2 | -0.923 | 1.85 | 0.724 | inactive
CG15617 | 1 | -4.47 | 1.03 | -1.74 | inactive
CG15617 | 2 | -0.91 | -0.112 | -0.44 | inactive
ACXE | 1 | 0.111 | 0.88 | 0.498 | inactive
CG17036 | 1 | 0.602 | -0.519 | 0.914 | inactive
CG17036 | 2 | 1.29 | 0.969 | 1.05 | inactive
elfless | 1 | 0.912 | 1.18 | 1.6 | inactive
Agpat1 | 1 | 0.526 | 0.71 | 0.429 | inactive
Agpat1 | 2 | 0.926 | -4.53 | 0.459 | inactive
lncRNA:CR31526 | 1 | -0.469 | 0.643 | 0.595 | inactive
lncRNA:CR31526 | 2 | -6.96 | 0.379 | -0.612 | inactive
lncRNA:CR31526 | 3 | 0.212 | -0.262 | 0.193 | inactive
CG12920 | 1 | 0.105 | 0.625 | -1.54 | inactive
Jon65Ai | 1 | -6.09 | -0.0819 | 0.953 | inactive
Jon65Ai | 2 | 0.222 | -1.13 | -0.264 | inactive
Obp59a | 1 | -0.301 | -5.98 | -0.622 | inactive
Ilk | 1 | -0.102 | 0.674 | 1.18 | inactive
RpL23 | 1 | 1.64 | 0.554 | 1.18 | inactive
xit | 1 | -0.472 | 0.383 | -6.65 | inactive
Alh | 1 | -1.38 | -4.54 | -0.167 | inactive
Alh | 2 | -2.78 | -0.283 | -1.6 | active
Alh | 3 | -6.92 | -0.594 | -1.28 | inactive
Alh | 4 | 0.688 | 0.581 | 0.82 | inactive
Alh | 5 | 0.439 | 0.346 | -0.135 | inactive

The list goes on; the last 5 above are carried over.
target gene | reagent no. | Wolbachia per cell robust z, rep 1 | Wolbachia per cell robust z, rep 2 | Wolbachia per cell robust z, rep 3 | call
Alh | 1 | -1.38 | -4.54 | -0.167 | inactive
Alh | 2 | -2.78 | -0.283 | -1.6 | active
Alh | 3 | -6.92 | -0.594 | -1.28 | inactive
Alh | 4 | 0.688 | 0.581 | 0.82 | inactive
Alh | 5 | 0.439 | 0.346 | -0.135 | inactive
CG10996 | 1 | -2.84 | 0.978 | -2.25 | active
bru2 | 1 | -0.095 | 0.246 | -0.495 | inactive
bru2 | 2 | -1.29 | -2.29 | -4.55 | inactive
bru2 | 3 | 0.0122 | 0.262 | 0.076 | inactive
bru2 | 4 | -0.16 | -0.016 | -0.398 | inactive
CG11356 | 1 | 0.0245 | 0.801 | -0.195 | inactive
SCOT | 1 | -1.87 | 1.46 | 0.871 | inactive
SCOT | 2 | -0.513 | -1.02 | 0.395 | inactive
CG14495 | 1 | 0.741 | 0.843 | 0.665 | inactive
Tsen34 + Trl | 1 | -1.37 | -2.27 | -1.05 | inactive
SecCl | 1 | -0.694 | 1.68 | -0.527 | inactive
Ccp84Ad | 1 | -1.95 | -0.928 | 0.514 | inactive
Ccp84Ad | 2 | -1.17 | -3.04 | -0.509 | inactive
hoe1 | 1 | -0.725 | 0.799 | 0.0268 | inactive
hoe1 | 2 | -0.00458 | -0.445 | -1.36 | inactive
hoe1 | 3 | -0.246 | -1.31 | -0.29 | inactive
Ir60a | 1 | 0.0664 | 0.162 | -0.696 | inactive
CG10730 | 1 | 1.64 | -0.962 | 0.655 | inactive
CG10730 | 2 | -0.218 | -0.297 | -1.77 | inactive
CG9701 | 1 | -2.02 | -1.65 | -1.92 | inactive
CG9701 | 2 | 0.988 | -0.553 | 0.508 | inactive
CG10845 | 1 | 0.305 | 0.177 | -0.586 | inactive
aly | 1 | 0.222 | 0.517 | 0.783 | inactive
aly | 2 | -0.595 | -2.11 | -0.815 | inactive
aly | 3 | -0.284 | 0.405 | -0.655 | inactive
CG3795 | 1 | 0.466 | 1.04 | 0.931 | inactive
CG3795 | 2 | 0.0433 | -1.04 | 0.506 | inactive
mAcon2 | 1 | -4.82 | -0.0784 | 0.173 | inactive
mAcon2 | 2 | 0.051 | -1.22 | -1.24 | inactive
CG7213 | 1 | 0.0841 | -0.49 | -0.568 | inactive
Prx2 | 1 | 1.39 | 0.869 | 1.23 | inactive
Prx2 | 2 | 0.691 | 0.525 | 0.483 | inactive
CG33098 | 1 | -0.977 | -1.03 | -1.09 | inactive
CG14606 | 1 | 1.04 | -1.48 | 0.857 | inactive
CG32457 | 1 | -1.29 | -1.03 | -0.868 | inactive
Muc11A | 1 | 0.333 | 0.505 | 1.24 | inactive
Muc11A | 2 | -0.685 | 0.363 | 0.287 | inactive
Snx27 | 1 | 0.0356 | -1.58 | -3.56 | active
Snx27 | 2 | -1.93 | -0.366 | 0.286 | inactive
Snx27 | 3 | -0.224 | 0.339 | -0.565 | inactive
twy | 1 | 0.394 | 0.481 | -0.483 | inactive
lncRNA:CR42790 | 1 | 0.924 | 1.06 | -0.328 | inactive
CR41243 + CG40160 | 1 | 0.461 | -0.834 | -0.954 | inactive
CG30411 | 1 | -1.2 | -1.99 | -0.861 | inactive
CG30411 | 2 | 1.54 | 0.215 | 2.06 | inactive
swif + cola | 1 | 0.141 | -0.285 | 0.875 | inactive
swif + cola | 2 | -1.07 | -1.46 | 0.302 | inactive
CG34028 | 1 | -1.99 | 0.184 | 1.19 | inactive
SerRS-m | 1 | -0.391 | -4.7 | 1.18 | inactive
CG6304 | 1 | 0.18 | -1.55 | -1.02 | inactive
CG6304 | 2 | 1.03 | 0.455 | -0.112 | inactive
CG17197 | 1 | 0.864 | 1.54 | -1.27 | inactive
LSm3 | 1 | -0.0321 | 0.249 | -6.56 | inactive
Nph | 1 | 0.349 | 0.15 | -2.54 | inactive
CG5404 | 1 | 1.81 | 1.11 | 0.693 | inactive
CG5404 | 2 | 0.409 | 1.28 | 0.963 | inactive
CG1407 | 1 | -0.209 | -6.57 | 0.219 | inactive
